Measured values from ChEMBL document CHEMBL1124867, “Synthesis and antiviral activity of monofluoro and difluoro analogues of pyrimidine deoxyribonucleosides against human immunodeficiency virus (HIV-1)” (J Med Chem, 1990).

Assay: Selectivity index of IC50 and CD50 of the compound
Assay type: functional

Row | SMILES | Selectivity index
1 | Nc1ccn([C@@H]2O[C@H](CO)C[C@@H]2F)c(=O)n1 | 7.1 SI
2 | Nc1ccn([C@@H]2O[C@H](CO)C=C2F)c(=O)n1 | 3 SI
3 | Nc1ccn([C@H]2CC[C@@H](CO)O2)c(=O)n1 [ZALCITABINE] | 8 SI
4 | Cc1cn([C@@H]2O[C@H](CO)C=C2F)c(=O)[nH]c1=O | > 10 SI
5 | Nc1ccn(C2OC(CO)C(F)C2F)c(=O)n1 (stereo unspecified) | > 10 SI
6 | Cc1cn([C@H]2C[C@H](N=[N+]=[N-])[C@@H](CO)O2)c(=O)[nH]c1=O [ZIDOVUDINE] | > 1.2 SI
